B1: SVT16-L123Q-GS2-SVG13M4-H6 (bispecific antibody)
chain: QVQLQESGGGSVQAGDSLRLSCAASGRTISNYAMGWFRQAPGKQREFVAAISRSDNTYYTDSVKGRFTISRDNAKNTLYLQMNSLKPEETAVYYCAADPNLMYESKWKYRALEAWGQGTQVTVSSGGGGSGGGSEVQLVESGGGLVQPGGSLRLSCEASGFTFDDYGMSWVRQAPGKGLEWVSSLTPNGGSTYYADSVKGRFTISRDNAKNTLYLQMNSLKPEDTALYYCAKNSYYGAMDYWGQGTQVTVSSHHHHHH
B2: SVT06-SVT16-L123Q-GS2-SVG13M4-H6 (bispecific antibody)
chain: QVQLQESGGGSVQAGGSLRLSCTASELSYDDYTIAWFRRAAGEGRVEDGEGVASITKSYDRAYDNKINYGHSVKGRFTISRDNAKNTVYLQMTDLLPSDTAVYYCALDITPPGGVGASLTEGFLFDYWGQGTQVTVSSQVQLQESGGGSVQAGDSLRLSCAASGRTISNYAMGWFRQAPGKQREFVAAISRSDNTYYTDSVKGRFTISRDNAKNTLYLQMNSLKPEETAVYYCAADPNLMYESKWKYRALEAWGQGTQVTVSSGGGGSGGGSEVQLVESGGGLVQPGGSLRLSCEASGFTFDDYGMSWVRQAPGKGLEWVSSLTPNGGSTYYADSVKGRFTISRDNAKNTLYLQMNSLKPEDTALYYCAKNSYYGAMDYWGQGTQVTVSSHHHHHH
notes: also called pRL501
B3: SVT06-GS3-SVT16-L123Q-GS2-SVA12M2-H6 (bispecific antibody)
chain: QVQLQESGGGSVQAGGSLRLSCTASELSYDDYTIAWFRRAAGEGRVEDGEGVASITKSYDRAYDNKINYGHSVKGRFTISRDNAKNTVYLQMTDLLPSDTAVYYCALDITPPGGVGASLTEGFLFDYWGQGTQVTVSSGGGGSGGGGSGGGGSQVQLQESGGGSVQAGDSLRLSCAASGRTISNYAMGWFRQAPGKQREFVAAISRSDNTYYTDSVKGRFTISRDNAKNTLYLQMNSLKPEETAVYYCAADPNLMYESKWKYRALEAWGQGTQVTVSSGGGGSGGGSEVQLVESGGGLVQAGGSLRLSCAASGRTFSYYPMAWFRQAPGQEREFVAAIIGADTTYYADSLKGRFTISRDNAKNMVYLQMNSLKPEDTAVYYCAARNTYWSDVYYREGQYTNWGQGTQVTVSSHHHHHH

What was measured:
[1] = molecular target: T1, tetanus neurotoxin (TeNT), authentic tetanus holotoxin (Clostridium tetani, UniProt P04958 2-1315); assay: GT1b-TeNT inhibition ELISA
[2] = molecular target: T1, tetanus neurotoxin (TeNT), authentic …; assay: ELISA: directly coated TeNT, goat anti-llama Ig PO
[3] = molecular target: T1, tetanus neurotoxin (TeNT), authentic …; assay: bridging ELISA: coated dog IgG, SDA, biotinylated TeNT, StrepPO
[4] = molecular target: T1, tetanus neurotoxin (TeNT), authentic …; assay: GT1b-TeNT inhibition ELISA; remark: listed apart in the source
[5] = molecular target: T1, tetanus neurotoxin (TeNT), authentic …; assay: ELISA: directly coated TeNT, goat anti-llama Ig PO; remark: listed apart in the source
[6] = molecular target: T1, tetanus neurotoxin (TeNT), authentic …; assay: ELISA: directly coated TeNT, anti-his6 PO
[7] = molecular target: T1, tetanus neurotoxin (TeNT), authentic …; assay: ELISA: directly coated TeNT, anti-his6 PO; remark: listed apart in the source
[8] = molecular target: T1, tetanus neurotoxin (TeNT), authentic …; assay: BLI (Octet Red96): biotinylated TeNT on SAX sensor, SDA 100 nM
[9] = molecular target: T1, tetanus neurotoxin (TeNT), authentic …; assay: bridging ELISA: coated TeNT, SDA, biotinylated TeNT, StrepPO (bivalent binding)
[10] = molecular target: T1, tetanus neurotoxin (TeNT), authentic …; assay: as above; remark: listed apart in the source
[11] = molecular target: T1, tetanus neurotoxin (TeNT), authentic …; assay: bridging ELISA: coated dog IgG, SDA, biotinylated TeNT, StrepPO; remark: listed apart in the source
[12] = molecular target: T1, tetanus neurotoxin (TeNT), authentic …; assay: bridging ELISA: coated dog Alb, SDA, biotinylated TeNT, StrepPO
[13] = molecular target: T1, tetanus neurotoxin (TeNT), authentic …; assay: as above; remark: listed apart in the source

Row | Binder | minimal absorbance value (GT1b-TeNT inhibition) [1] | Effective SDA Concentration at A450 0.15 [2] | Effective SDA Concentration at A450 0.3 [3] | Effective SDA Concentration at A450 0.56 [4] | maximal absorbance value [5] | Effective SDA Concentration at A450 0.15 [6] | maximal absorbance value [7] | 1st test Signal (nm) [8] | maximal absorbance value [9] | Effective SDA Concentration at A450 0.3 [10] | maximal absorbance value [11] | maximal absorbance value [12] | Effective SDA Concentration at A450 0.3 [13]
1 | B1 | 0.13 A450 | 3 ng/mL | 2.6 ng/mL | 73 ng/mL | 1.22 A450 | 8 ng/mL | 1.45 A450 | 0.18 nm | 1.12 A450 | 13 ng/mL | 1.5 A450 |  | 
2 | B2 | 0.13 A450 | 4 ng/mL | 1.2 ng/mL | 35 ng/mL | 1.37 A450 | 11 ng/mL | 1.62 A450 |  | 1.73 A450 | 5.3 ng/mL | 1.69 A450 |  | 
3 | B3 | 0.13 A450 | 1.1 ng/mL |  | 49 ng/mL | 1.41 A450 | 3.8 ng/mL | 1.72 A450 |  | 1.62 A450 | 5.4 ng/mL |  | 1.55 A450 | 1.5 ng/mL
